Compound potency records, mixed from different reports. Data source: NIAID ChemDB in PubChem.

Shared fields: growth or infection tests; species: HIV-1; cells: CEM; read-out: EC50

Conditions beyond the fields shown may differ between rows.

SMILES	strain	mutations	method	value
COc1ccc(S(=O)(=O)N(CC(C)C)C[C@@H](O)CCN(CC2CCCC2)S(=O)(=O)C2CCC(OC)OC2)cc1	IIIB		p24	<1 µM
Cc1cc(C(=O)Nc2ccc(Cl)c(C(=O)OC(C)C)c2)c(C)o1	IIIB		cytopathic effect / XTT	0.00042 µg/mL
Cc1cc(C)cc(Sc2c(C(C)C)c(=O)[nH]c(=O)n2CC2=CCCC2)c1	IIIB		XTT	0.002 µM
COc1ccc2c(c1)C(=O)N(c1c(C)cccc1C)C2=O	IIIB		syncytia	>140 µM
CN[C@@H]1[C@H](O[C@@H]2OC[C@@H](O)[C@H](O)[C@H]2O)[C@@H](O)[C@H](O[C@H]2c3cc(C)c(C(=O)N[C@H](C)C(=O)O)c(O)c3-c3c(cc4c(c3O)C(=O)c3cc(OC)cc(O)c3C4=O)[C@@H]2O)O[C@@H]1C	IIIB		syncytia	5.2 µM
CC(C)NS(=O)(=O)c1ccc(NC(=O)c2ccccc2SSc2ccccc2C(=O)Nc2ccc(S(=O)(=O)NC(C)C)cc2)cc1			XTT	16 µM
CCCCCCCCCC[N+](C)(C)CCCNCc1c(O)cc2c(c1O)-c1cc(ccc1O)[C@H]1NC(=O)[C@@H]3NC(=O)C4NC(=O)[C@@H](Cc5ccc(c(Cl)c5)Oc5cc3cc(c5O)Oc3ccc(cc3Cl)[C@@H](O)[C@H](NC1=O)C(=O)N[C@@H]2C(=O)O)NC(=O)[C@H](N)c1ccc(O)c(c1)Oc1cc(O)cc4c1	MN		syncytia	6.5 µM
NC(=O)CCNC(=O)c1ccccc1SCc1ccc(OP(=O)(O)O)cc1	RF		XTT	3.28 µM
CC(=O)Nc1ccc(S(=O)(=O)N(CC(C)C)C[C@@H](O)[C@H](Cc2ccccc2)NC(=O)OCc2cccnc2)cc1	IIIB		p24	<0.101 µM
Cc1cc(C)c(CS(=O)c2cccc[n+]2[O-])c(C)c1	RF		syncytia	12 µg/mL
Nc1cc(O)c2cc(N=Nc3ccc(N=Nc4ccc(N=Nc5ccc6cc(S(=O)(=O)O)cc(S(=O)(=O)O)c6c5)c5ccccc45)c4cc(S(=O)(=O)O)ccc34)c(S(=O)(=O)O)cc2c1				7 µM
C=C(C)COC(=O)N[C@@H](Cc1ccccc1)[C@H](O)CN(CC(C)C)S(=O)(=O)c1ccc(Cl)c(Cl)c1	IIIB		p24	<1.001 µM
CC(C)c1c(Cc2ccccc2)n(COCc2ccc(/C(O)=C/C(=O)C(=O)O)cc2)c(=O)[nH]c1=O	IIIB		cytopathic effect	0.033 µM
COc1cc(Cc2cnc(/N=C3\C(=O)N(CN4CCCCC4)c4ccc(C)cc43)nc2N)cc(OC)c1OC			cytopathic effect	>105 µM
COc1ccc(S(=O)(=O)N(CC(C)C)C[C@@H](O)CCN(CC2CCCC2)S(=O)(=O)Cc2nc[nH]c2C)cc1	IIIB		p24	<1 µM
Nc1nc(N)c(Br)c(OCCOCP(=O)(O)O)n1	IIIB		syncytia	7.3 µM
Cc1cc(C)cc(C(=O)c2c(C(C)C)c(=O)[nH]c(=O)n2CC2CC2)c1	IIIB		XTT	0.0002 µM
CCCCOC(=O)c1cc(NC(=O)C2=C(C)OCCS2)ccc1Cl	IIIB		cytopathic effect / XTT	0.0001 µg/mL
Nc1nc(N)c(C2CC2)c(OCCOCP(=O)(O)O)n1	IIIB		syncytia	≥300 µM
Nc1ccc(N=Nc2ccc(C=Cc3ccc(N=Nc4ccc(N)c5ccc(S(=O)(=O)O)cc45)cc3S(=O)(=O)O)c(S(=O)(=O)O)c2)c2cc(S(=O)(=O)O)ccc12				4 µM
COc1cc(Cc2cnc(/N=C3\C(=O)N(CN4CCN(c5ccc([N+](=O)[O-])cc5)CC4)c4ccc(C)cc43)nc2N)cc(OC)c1OC			cytopathic effect	>37.4 µM
Cc1ccc(C)c(CS(=O)c2ccc(Cl)c[n+]2[O-])c1	IIIB	RT-Y181C	syncytia	9.4 µg/mL
COc1c(N2CCN(CN3C(=O)O[C@](C#CC4CC4)(C(F)(F)F)c4cc(Cl)ccc43)CC2)c(F)cc2c(=O)c(C(=O)O)cn(C3CC3)c12	IIIB		MTT	0.0024 µM
CC(C)CN(CC(F)(F)C(=O)[C@H](Cc1ccccc1)NC(=O)O[C@H]1CCOC1)S(=O)(=O)c1ccccc1	IIIB		p24	<1 µM
Cc1ccc(C)c(C(C)S(=O)(=O)c2ccc(C)c[n+]2[O-])c1	IIIB		syncytia	9.6 µg/mL
Cc1cccc(C)c1N1C(=O)c2ccc(C(=O)O)cc2C1=O	IIIB		syncytia	>27 µM
Nc1ccc(NC(=O)c2ccccc2SSc2ccccc2C(=O)Nc2ccc(N)cc2)cc1			XTT	7.8 µM
COC(=O)C(OCC1OC(n2cc(C)c(=O)[nH]c2=O)CC1N=[N+]=[N-])P(=O)(O)OP(=O)(O)OP(=O)(O)O	IIIB		cytopathic effect / syncytia	>100 µg/mL
Nc1nc(N)n(CCOCP(=O)(O)O)c(=O)c1Cc1ccccc1	IIIB		syncytia	≥300 µM
CCC1=C(C(=O)Nc2ccc(Cl)c(C(=O)OCC(C)C)c2)SCCO1	IIIB		cytopathic effect / XTT	0.0389 µg/mL
COc1ccc(S(=O)(=O)N(CC2CCCC2)C[C@@H](O)CN(CCc2ccccc2)C(C)=O)cc1	IIIB		p24	<1 µM
CC[C@H](C)C(NC(=O)c1ccccc1S)C(=O)O			XTT	5.5 µM
COc1cc(Cc2cnc(/N=C3\C(=O)N(CN4CCNCC4)c4ccc(C)cc43)nc2N)cc(OC)c1OC			cytopathic effect	>89.2 µM
Cc1noc(C)c1S(=O)(=O)N(Cc1ccccc1)C[C@@H](O)[C@H](Cc1ccccc1)NC(=O)[C@H](CC(N)=O)NC(=O)c1ccc2ccccc2n1	IIIB		p24	<1.001 µM
CC(C)=CCC[C@]1(C)C=Cc2c(ccc3c2C(=O)C(=O)C(C2=C(Cl)C(=O)c4ccccc4C2=O)=C3O)O1	IIIB		cytopathic effect / MTT	0.43 µM
Cc1ccc(C)c(CSc2c(Cl)ccc[n+]2[O-])c1	MN		syncytia	0.4 µg/mL
Cc1cccc(C)c1N1C(=O)c2ccc(O)cc2C1=O	IIIB		syncytia	>30 µM
CCc1c(Oc2cc(C)cc(C)c2)n(CC2CC2)c(=O)[nH]c1=O	IIIB		XTT	0.001 µM
COc1cc(Cc2cnc(/N=C3\C(=O)N(CN4CCN(c5ccccc5)CC4)c4ccc(C)cc43)nc2N)cc(OC)c1OC			cytopathic effect	>121 µM
CCCCCCCCCC[N+](C)(C)CCCNCc1c(O)cc2c(c1O)-c1cc(ccc1O)[C@H]1NC(=O)[C@@H]3NC(=O)C4NC(=O)[C@@H](Cc5ccc(c(Cl)c5)Oc5cc3cc(c5O)Oc3ccc(cc3Cl)[C@@H](O)[C@H](NC1=O)C(=O)N[C@@H]2C(=O)O)NC(=O)[C@H](N)c1ccc(O)c(c1)Oc1cc(O)cc4c1		RT-K103N	syncytia	6 µM
COc1ccc(S(=O)(=O)N(Cc2ccccc2)CC(F)(F)C(=O)[C@@H](Cc2ccccc2)NC(=O)OCc2ccccc2)cc1	IIIB		p24	<1 µM
CCOC(=O)Cc1c(N)nc(N)n(CCOCP(=O)(O)O)c1=O	IIIB		syncytia	≥300 µM
CC(C)CN(C[C@@H](O)[C@H](Cc1ccccc1)NC(=O)OC(C)(C)C)S(=O)(=O)c1ccc2nonc2c1	IIIB		p24	<1.001 µM
CCc1c(C(=O)c2cc(C)cc(C)c2)n(CC2CC2)c(=O)[nH]c1=O	IIIB		XTT	0.0002 µM
NS(=O)(=O)c1ccc(NC(=O)c2ccccc2S)cc1			XTT	6.2 µM
NC(=O)C[C@H](NC(=O)c1ccc2ccccc2n1)C(=O)N[C@@H](Cc1ccccc1)[C@H](O)CN(Cc1ccccc1)S(=O)(=O)c1cccc(C(=O)O)c1	IIIB		p24	<10 µM
Nc1ccn(C2CC(CO)(CO)C2)c(=O)n1	LAV		cytopathic effect	>3 µg/mL
FC(F)(F)[C@@]1(C#CC2CC2)OC(=S)Nc2ccc(Cl)cc21	IIIB		MTT	0.00253 µM
Cc1cn(C2CC(N=[N+]=[N-])C(COC(C(=O)O)P(=O)(O)O)O2)c(=O)[nH]c1=O	IIIB		cytopathic effect / syncytia	5.6 µg/mL
COCCOC(=O)c1cc(NC(=O)C2=C(C)OCCS2)ccc1Cl	IIIB		cytopathic effect / XTT	0.00034 µg/mL
CC(C)CN(C[C@@H](O)[C@H](Cc1ccccc1)NC(=O)O[C@H]1CCOC1)S(=O)(=O)c1ccc(F)cc1	IIIB		p24	<0.101 µM
Cc1ccc(C(C)S(=O)(=O)c2c(C)ccc[n+]2[O-])c(C)c1	IIIB	RT-E103K	syncytia	60 µg/mL
Cc1cccc(C)c1NC(=O)c1ccc([N+](=O)[O-])cc1	IIIB		syncytia	>29.3 µM
N[C@H]1CONC1=O	N1T		p24	<10 µg/mL
Cc1cn(C2CC(N=[N+]=[N-])C(COC(C(=O)O)P(=O)(O)OP(=O)(O)OP(=O)(O)O)O2)c(=O)[nH]c1=O	IIIB		cytopathic effect / syncytia	≥100 µg/mL
CC(C)=CCOc1cc(NC(=S)c2ccoc2C)ccc1Cl	IIIB	RT-L100I	syncytia	0.02 µg/mL
O=S(=O)(O)c1ccc(N=Nc2ccc(N=Nc3ccc(/C=C/c4ccc(N=[N+]([O-])c5ccc(/C=C/c6ccc(N=Nc7ccc(N=Nc8ccc(S(=O)(=O)O)cc8)c8ccccc78)cc6S(=O)(=O)O)c(S(=O)(=O)O)c5)cc4S(=O)(=O)O)c(S(=O)(=O)O)c3)c3ccccc23)cc1				5 µM
O=S(=O)(Cc1ccccc1I)c1cccc[n+]1[O-]	IIIB	RT-L100I	syncytia	10 µg/mL
Nc1ccc2cc(S(=O)(=O)O)cc(O)c2c1N=Nc1ccc(NC(=O)Nc2ccc(N=Nc3c(N)ccc4cc(S(=O)(=O)O)cc(O)c34)c(S(=O)(=O)O)c2)cc1S(=O)(=O)O				10 µM
O=P(O)(O)OP(=O)(O)OP(=O)(O)O	IIIB		cytopathic effect / MTT	>100 µg/mL
CCCOc1nc(N)nc2c1ncn2[C@@H]1C=C[C@H](CO)C1				2.2 µM
Cc1ccc(C)c(CS(=O)(=O)c2cccc[n+]2[O-])c1	IIIB	RT-Y181C	syncytia	20 µg/mL
O=C(NCc1ccccc1)c1ccccc1SSc1ccccc1C(=O)NCc1ccccc1			XTT	5 µM
O=[N+]([O-])c1ccc[n+]([O-])c1SCc1ccccc1	IIIB	RT-Y181C	syncytia	≥20 µg/mL
COc1ccc(S(=O)(=O)N(CC(C)C)C[C@@H](O)CCN(CCc2ccccc2)C(=O)O[C@H]2CCOC2)cc1	IIIB		p24	<1 µM
Cc1cc(-c2ccc(N=Nc3ccc4c(S(=O)(=O)O)cc(S(=O)(=O)O)c(N)c4c3O)c(C)c2)ccc1N=Nc1ccc2c(S(=O)(=O)O)cc(S(=O)(=O)O)c(N)c2c1O				20 µM
Cc1c(N)nc(N)nc1OCCOCP(=O)(O)O	IIIB		syncytia	0.33 µM
CC(C)=CCOc1cc(NC(=S)c2ccsc2C)ccc1Cl	IIIB	RT-Y188L	syncytia	0.06 µg/mL
O=C1O[C@](C#CC2CC2)(C(F)(F)F)c2cc(Cl)ccc2N1CN1CCN(c2ccccn2)CC1	IIIB		MTT	0.0121 µM

A second listing of 10 rows from above:

| SMILES | strain | mutations | method | value |
|---|---|---|---|---|
| O=C(NCc1ccccc1)c1ccccc1SSc1ccccc1C(=O)NCc1ccccc1 |  |  | XTT | 5 µM |
| COc1ccc2c(c1)C(=O)N(c1c(C)cccc1C)C2=O | IIIB |  | syncytia | >140 µM |
| Nc1ccc(NC(=O)c2ccccc2SSc2ccccc2C(=O)Nc2ccc(N)cc2)cc1 |  |  | XTT | 7.8 µM |
| Cc1ccc(C)c(CSc2c(Cl)ccc[n+]2[O-])c1 | MN |  | syncytia | 0.4 µg/mL |
| Nc1ccc(N=Nc2ccc(C=Cc3ccc(N=Nc4ccc(N)c5ccc(S(=O)(=O)O)cc45)cc3S(=O)(=O)O)c(S(=O)(=O)O)c2)c2cc(S(=O)(=O)O)ccc12 |  |  |  | 4 µM |
| CCCCOC(=O)c1cc(NC(=O)C2=C(C)OCCS2)ccc1Cl | IIIB |  | cytopathic effect / XTT | 0.0001 µg/mL |
| Nc1cc(O)c2cc(N=Nc3ccc(N=Nc4ccc(N=Nc5ccc6cc(S(=O)(=O)O)cc(S(=O)(=O)O)c6c5)c5ccccc45)c4cc(S(=O)(=O)O)ccc34)c(S(=O)(=O)O)cc2c1 |  |  |  | 7 µM |
| Cc1cc(-c2ccc(N=Nc3ccc4c(S(=O)(=O)O)cc(S(=O)(=O)O)c(N)c4c3O)c(C)c2)ccc1N=Nc1ccc2c(S(=O)(=O)O)cc(S(=O)(=O)O)c(N)c2c1O |  |  |  | 20 µM |
| NC(=O)CCNC(=O)c1ccccc1SCc1ccc(OP(=O)(O)O)cc1 | RF |  | XTT | 3.28 µM |
| O=S(=O)(O)c1ccc(N=Nc2ccc(N=Nc3ccc(/C=C/c4ccc(N=[N+]([O-])c5ccc(/C=C/c6ccc(N=Nc7ccc(N=Nc8ccc(S(=O)(=O)O)cc8)c8ccccc78)cc6S(=O)(=O)O)c(S(=O)(=O)O)c5)cc4S(=O)(=O)O)c(S(=O)(=O)O)c3)c3ccccc23)cc1 |  |  |  | 5 µM |

Blank or dashed fields: not listed here. ECn: concentration that inhibits the pathogen or its effect by n%.